Pooled drug test results. Numbers come from NIAID ChemDB, via PubChem.

All rows: whole-cell or culture tests; agent: Herpes simplex virus 1; cells: VERO; read-out: inhibition

Percent inhibition refers to the dose given; in toxicity tests it is the harm to the cells.

CCc1cn([C@@H]2O[C@H](CO)[C@@H](O)[C@@H]2F)c(=O)[nH]c1=O ; strain or isolate: F ; method: plaque count ; dose: 0.26 µM ; value: 90%
CSC(=Nc1ccc(Oc2ccc(/C=C(/Nc3ccccc3)SC)cc2)cc1)Nc1ccccc1 ; method: plaque count ; dose: 5 µM ; value: 0%
C[C@]1(C(=O)O)C2CCc3cc4[nH]c5ccccc5c4cc3[C@@]2(C)CC[C@@H]1O ; strain or isolate: KOS ; method: virus yield ; dose: 0.5 µM ; value: >95%
NC(=Nc1ccc(Cc2ccc(N=C(N)c3ccccc3)cc2)cc1)c1ccccc1 ; method: plaque count ; dose: 5 µM ; value: <50%
O=C1Nc2cc(Br)cc(Br)c2C1=O ; method: virus yield ; dose: 50 µM ; value: 46%
O=c1[nH]c(=O)n([C@H]2C[C@H](O)[C@@H](CO)O2)cc1/C=C/Br ; method: cytopathic effect ; dose: 0.001 µg/mL ; value: ≥25%
Nc1[nH]c(=S)nc2c1C(c1ccc(Cl)cc1)c1c([nH]c(=S)[nH]c1=O)N2 ; dose: 10 µg/mL ; value: 30%
CN1C(=O)NC(=O)N([C@H]2C[C@H](O)[C@@H](CO)O2)C1(C)C ; strain or isolate: 42D ; method: plaque count ; dose: 50 µM ; value: 83%
Cc1cn([C@H]2C[C@H](O)[C@@H](CN)O2)c(=O)[nH]c1=O ; strain or isolate: Strain F ; method: plaque count ; dose: 153 µM ; value: 90%
O=C1C(=O)N([C@@H]2O[C@H](COCc3ccccc3)[C@@H](OCc3ccccc3)[C@H]2OCc2ccccc2)c2ccc(I)cc21 ; method: virus yield ; dose: 50 µM ; value: 37%
O=[N+]([O-])c1ccc(C2c3c(nc(=S)[nH]c3Cl)Oc3nc(=S)[nH]c(Cl)c32)cc1 ; dose: 50 µg/mL ; value: 90%
O=c1[nH]c(=O)n([C@@H]2O[C@H](CO)[C@@H](O)[C@@H]2F)cc1I ; method: cytopathic effect ; dose: 0.01 µg/mL ; value: ≥25%
Cc1cn(N2C[C@H](CO)[C@H]2CO)c(=O)[nH]c1=O ; method: plaque count ; dose: 10 µg/mL ; value: 0%
CCCCCCCCCCCCCCCCCCCCCC(=O)OC(COC(=O)CCCCCCCCCCCCCCCCC)CO[C@@H]1O[C@H](CO)[C@@H](O)[C@H](O)[C@H]1O ; strain or isolate: KOS ; method: plaque count ; dose: 50 µg/mL ; value: inactive
C/C=C/c1cn([C@H]2C[C@H](O)[C@@H](CO)O2)c(=O)[nH]c1=O ; strain or isolate: F-2 ; method: plaque count ; dose: 1 µM ; value: 39%
O=c1[nH]cnc2c1nnn2[C@@H]1c2ccccc2C[C@H]1O ; strain or isolate: F ; method: plaque count ; dose: 100 µM ; value: 0%
O=C1CC(c2ccc([N+](=O)[O-])cc2)n2nc(C3CCCCC3)nc2N1 ; strain or isolate: 7401H ; method: plaque count ; dose: 50 µg/mL ; value: 32%
Nc1nc2c(ncn2COCCO)c(=O)[nH]1 ; strain or isolate: 7401H ; method: virus yield ; dose: 0.3 µg/mL ; value: >99%
CC(=O)OC(C)C1=C(O)C2=C(C(=O)C1=O)[C@@]1(C)CCCC(C)(C)[C@@H]1C[C@H]2O ; method: plaque count ; dose: 0.2 µg/mL ; value: inactive
CN(C)CCN1C(=O)c2cccc3cc(N)cc(c23)C1=O ; strain or isolate: HFEM ; method: plaque count ; dose: 4 µg/mL ; value: 75%
COc1cccc2c1C(=O)c1c(O)c3c(c(O)c1C2=O)C[C@@](O)(C(C)=O)C[C@@H]3O[C@H]1C[C@H](N)[C@H](O)[C@H](C)O1 ; method: virus yield ; dose: 0.5 µM ; value: 0%
CCCCCCCCCCCCCCCCCCCCCC(=O)OCC(CO[C@@H]1O[C@H](CO)[C@H](O)[C@H](O)[C@H]1O)OC(=O)CCCCCCCCCCCCC ; strain or isolate: KOS ; method: plaque count ; dose: 50 µg/mL ; value: inactive
Nc1ncnc2nc(-c3cscn3)[nH]c12 ; method: plaque count ; dose: 100 µg/mL ; value: 0%
Cc1ccc(-n2nc3c4ccccc4n(C4O[C@H](CO)[C@@H](O)[C@H]4O)cc-3c2=O)cc1 ; method: virus yield ; dose: 100 µM ; value: 20%
CCCc1nc2n(n1)C(c1ccccc1)CC(=O)N2 ; strain or isolate: 7401H ; method: plaque count ; dose: 50 µg/mL ; value: 6%
CC(=O)O[C@]1(C)/C=C/C[C@@H](C)/C=C/[C@@]2(C)CC[C@@H](C(C)(C)O)[C@@H]2[C@@H](O)C1 ; method: cytopathic effect ; dose: 15 µM ; value: 87%
O=c1ccn([C@@H]2O[C@H](CO)[C@@H](O)[C@@H]2F)c(=O)[nH]1 ; strain or isolate: F ; method: virus yield ; dose: 1 µM ; value: 90.8%
COc1ccc(-n2nc3c4cc(C)ccc4n(C4O[C@H](CO)[C@@H](O)[C@H]4O)cc-3c2=O)cc1 ; method: virus yield ; dose: 100 µM ; value: 30%
C=Cc1c(C)c2cc3nc(c(C(=O)O)c4nc(cc5[nH]c(cc1[nH]2)c(C)c5CC)C(C)=C4C(=O)O)[C@@H](CCC(=O)O)[C@@H]3C ; method: plaque count ; setting: 1% FBS ; dose: 45.33 µM ; value: 90%
Cc1ccc(NC(=S)Nc2ccc(Cl)cc2)cc1NC(=S)Nc1ccc(Cl)cc1 ; method: plaque count ; dose: 5 µM ; value: 0%
NC[C@H]1O[C@@H](n2cc(Cl)c(=O)[nH]c2=O)C[C@@H]1O ; method: plaque count ; dose: 100 µM ; value: 71%
CCC(=O)C(CCCCCCOc1ccc(OC)cc1Cl)C(=O)CC ; strain or isolate: KOS ; method: plaque count ; dose: 3 µg/mL ; value: 50%
Cc1ccc2ncc3c(=O)n(-c4ccc(Cl)cc4)[nH]c3c2c1 ; method: virus yield ; dose: 100 µM ; value: 27%
CCCCCc1nc2n(n1)C(c1ccc([N+](=O)[O-])cc1)CC(=O)N2 ; strain or isolate: 7401H ; method: plaque count ; dose: 50 µg/mL ; value: 36%
Fc1ccc(N2CCCCC2)c(NC(=S)c2ccncc2)c1 ; strain or isolate: F ; method: plaque count ; dose: 4 µM ; value: 80%
CCCCC/C=C\C/C=C\CCCCCCCC(=O)OCC(CO[C@@H]1O[C@H](CO)[C@@H](O)[C@H](O)[C@H]1O)OC(=O)CCCCCCC/C=C\C/C=C\CCCCC ; strain or isolate: KOS ; method: plaque count ; dose: 50 µg/mL ; value: 50%
Cc1c(O)c2cc(c1O)C(c1cc(Br)ccc1O)c1cc(c(O)c(C)c1O)C(c1cc(Br)ccc1O)c1cc(c(O)c(C)c1O)C(c1cc(Br)ccc1O)c1cc(c(O)c(C)c1O)C2c1cc(Br)ccc1O ; method: plaque count ; dose: 11 µg/mL ; value: 100%
Nc1nc2c(ncn2COC(CO)CO)c(=O)[nH]1 ; method: cytopathic effect ; dose: 0.003 µg/mL ; value: ≥25%
O=C1CC(c2ccc([N+](=O)[O-])cc2)n2nc(-c3ccncc3)nc2N1 ; strain or isolate: 7401H ; method: plaque count ; dose: 50 µg/mL ; value: 0%
Nc1nc(=O)n([C@@H]2O[C@H](CO)[C@@H](O)[C@@H]2F)cc1I ; strain or isolate: F ; method: virus yield ; dose: 0.01 µM ; value: 61%
CC(=O)OC[C@H]1O[C@H](O[C@H]2O[C@@H](COC(=O)/C=C/c3ccccc3)[C@H](O)C2(COC(C)=O)OC(=O)/C=C/c2ccccc2)[C@H](OC(C)=O)[C@@H](O)[C@@H]1OC(C)=O ; strain or isolate: 7401H ; method: plaque count ; dose: 100 µg/mL ; value: 7.3%
O=[N+]([O-])c1ccc(NC(=S)Nc2ccc(Cc3ccc(NC(=S)Nc4ccc([N+](=O)[O-])cc4)cc3)cc2)cc1 ; method: plaque count ; dose: 5 µM ; value: 0%
NC[C@H]1O[C@@H](n2ccc(=O)[nH]c2=O)C[C@@H]1O ; method: plaque count ; dose: 100 µM ; value: 0%
O=C1C(=O)N([C@@H]2O[C@H](COCc3ccccc3)[C@@H](OCc3ccccc3)[C@H]2OCc2ccccc2)c2ccccc21 ; method: virus yield ; dose: 50 µM ; value: 61%
Nc1ncnc2c1ncn2[C@@H]1O[C@H](CO)[C@@H](O)[C@@H]1O ; strain or isolate: F ; method: plaque count ; dose: 35 µM ; value: 30%
Cc1cn([C@@H]2O[C@H](CO)[C@@H](O)[C@@H]2F)c(=O)[nH]c1=O ; strain or isolate: F ; method: virus yield ; dose: 2.5 µM ; value: 92.5%
O=S(=O)(c1ccc(OCc2ccc(Cl)cc2)cc1)c1ccc(OCc2ccc(Cl)cc2)cc1 ; method: plaque count ; dose: 30 µM ; value: >50%
[N-]=[N+]=NC[C@H]1O[C@@H](n2cc(Br)c(=O)[nH]c2=O)C[C@@H]1O ; method: plaque count ; dose: 100 µM ; value: 46%
Nc1ccn([C@H]2O[C@@H](CO)[C@H](O)[C@H]2F)c(=O)n1 ; strain or isolate: F ; method: virus yield ; dose: 5 µM ; value: 96%
Cc1ccc2c(c1)c1nn(-c3ccc(Br)cc3)c(=O)c-1cn2C1O[C@H](CO)[C@@H](O)[C@H]1O ; method: virus yield ; dose: 100 µM ; value: 25%
CCCCCCCCCCCCCCCCCCCCCC(=O)OCC(CO[C@@H]1O[C@H](CO)[C@@H](O)[C@H](O)[C@H]1O)OC(=O)CCCCCCCCCCCCC ; strain or isolate: KOS ; method: plaque count ; dose: 50 µg/mL ; value: inactive
O=c1c2cnc3cc(F)ccc3c2[nH]n1-c1ccc(F)cc1 ; method: virus yield ; dose: 100 µM ; value: 26%
O=S(=O)(c1ccc(OCc2ccncc2)cc1)c1ccc(OCc2ccncc2)cc1 ; method: plaque count ; dose: 30 µM ; value: <50%
COc1ccc(-n2[nH]c3c(cnc4ccc(C)cc43)c2=O)cc1 ; method: virus yield ; dose: 100 µM ; value: 22%
CSC(=NCCc1ccccc1)Nc1ccc(Oc2ccc(/C=C(/NCCc3ccccc3)SC)cc2)cc1 ; method: plaque count ; dose: 30 µM ; value: >90%

Again, the opening 3 rows:

compound,strain or isolate,method,setting,dose,value
CCc1cn([C@@H]2O[C@H](CO)[C@@H](O)[C@@H]2F)c(=O)[nH]c1=O,F,plaque count,,0.26 µM,90%
CSC(=Nc1ccc(Oc2ccc(/C=C(/Nc3ccccc3)SC)cc2)cc1)Nc1ccccc1,,plaque count,,5 µM,0%
C[C@]1(C(=O)O)C2CCc3cc4[nH]c5ccccc5c4cc3[C@@]2(C)CC[C@@H]1O,KOS,virus yield,,0.5 µM,>95%

Conditions beyond the fields shown may differ between rows. "inactive" is the filed call at that dose; no cut-off is given. An empty or dashed field is not shown.